Assay results reported in the supplement of paper PMC12637763.
Residue numbers refer to the chain shown, from its start. The list shows a part of the results. Env chains of viruses from a treatment-interruption trial, translated from the printed DNA. IC50 / IC80 of two broadly neutralizing antibodies; lower = more sensitive virus; >50 µg/ml means not reached and <0.001 µg/ml is below the lowest dose. No active / inactive call.

B1: HIV-1 Env, reservoir clone (protein)
chain: MKVRVMQRNWQHLGRWGLLFLGLLICCNATEQLWVTVYYGVPVWKEATTTLFCASDAKGYEKEAHNVWATHACVPTDPNPQEIPLVNVTENFNMWKNNMVEQMQTDIISLWDQSLKPCVKLTPLCVTLNCNNNIKWANGNNSTNPDMKNCSFNMTTEVRDKRLKVSALFYKIDLTPLNETSGEYRLINCNTSTIKQACPKVSWDPIPIHYCAPAGYAILKCRDKNFNGTGPCNNVSTVQCTHGIKPVVSTQLLLNGSLAEEDIVIRTQNISDNAKTIIVSLNESVTINCTRPGNNTRKSIHIGPGQVFYANNDIIGDIRKAFCTLNGTQWNKTLDRVKAKLRSLFNKTTIIFAQPSGGDLEVTMHSFNCRGEFFYCNTSGLFNNNTFNNTGGNENITLPCRIKQIINMWQGVGQAMYTAPIAGNITCVSNITGLLLIRDGGPDNDNETFRPGGGDMRDNWRSELYKYKVVEIEPLGIAPTRAKRQVVRRERRAVGIGAMFLGFLGAAGSTMGAASIALTVQARQLLSGIVQQQNNLLRAIEAQQHLLQLTVWGIKQLQARVLAVERYLKDQQLLGVWGCSGKLICTTSVPWNSSWSNKSQQEIWDNMTWMDWEREISNYSQTIYKLLEESQYQQDKNEQELLALDKWASLWNWFDISNWLWYIRIFIMIVGGLIGLRIVFAVLAIVNRVRKGYSPLSLQTLIPNSRGPDRPEGIEEGGGEQDRDRSVRLVNGFLALVWDDLRNLCLFSYRLLRDFILIAARTVDRGLRGGWKALKYLWNLTQYWSRELKDSAISLYNSIAIAVAEGTDRIIEALQIIVRGVLHIPRRIRQGLERALL
B2: HIV-1 Env, reservoir clone (protein)
chain: MKAKETRKNYQHLWRWGIMLLGMLMICSAASQLWVTVYYGVPVWKEATTTLFCASDAKAYDTEVHNVWATHACVPTDPNPQEVVLGNVTEDFNMWKNNMVEQMHEDIISLWDQSLKPCVKITPLCVTLNCTEYSNATSTTWGQMEKGEIKNCSFNVTTNIKNKMQKEYALFYKLDVVPIGDNSTNYRLIKCNTSAITQACPKVSFQPIPIHYCAPAGFAILKCNNKTFNGLGPCTNVSTVQCTHGIRPVVSTQLLLNGSLAEEEIVIRSENFSDNAKNIIVHLNASIEINCTRPNNNTRKSITIGPGRAFYATGDVIGDIRQAHCNISGEKWNEALKQIAIKLREQFGHNKTIVFNQSSGGDPEIVAHSVNCGGEFFYCNSTKLFNSTWTRNNTTESNETITLPCKIKQIINLWQEVGKAIYAPPISGPIRCSSNITGLLLTRDGGNTSETNKETFRPGGGDMRDNWRSELYKYKVVKIEPLGVAPTKAKRRVVQRERRAVGTFGALFLGFLGTAGSTMGAASITLTVQARQLLSGIVQQQNNLLKAIEAQQHLLQLTVWGIKQLQARVLAVERYLKDQQLLGLWGCSGKLICTTTVPWNASWSNKSLEQIWENMTWMQWEKEIDNYTGIIYSLISESQLQQEKNEKELLELDKWASLWTWFDITNWLWYIRIFIMIVGGLIGLRIVFAVLSIVNRVRKGYSPLSFQTRLPTPRGPDRPEGIEEEGGERGRDTSIRLVDGFLALIWDDLRNLCLFSYHHLRDLILIVVRTVELLGRRGWELLKYWWNLLKYWSQELKKSAVSLFNAAAIAVAEGTDRVIEVVQRAGRGILHVPRRIRQGLERALQ
B3: HIV-1 Env, reservoir clone (protein)
chain: B2 chain with N278I
B4: HIV-1 Env, reservoir clone (protein)
chain: MRVKGIRRNYQHWWRGDIWRWGMMLLGMLMICSATGSLWVTVYYGVPVWKEATTTLFCASDAKAYDTEAHNVWATHACVPTDPNPQEVPLVNVTENFNMWKNNMVEQMHEDIISLWDQSLKPCVKLTPLCVTLHCTEIGTNATNNSSHNPTPTTNSSTSPTPMGEIKNCSFNVTTNRRDKVQKTYAFFYNMDIKQIAEEDNTSYILTSCNTSVITQACPKVSFEPIPIHYCAPAGFAILKCNDTNFNGTGPCKNVTTVQCTHGIKPVVSTQLLLNGSLARGEVMIRSENISNNAKIIIVQLKEPVEINCTRPNNNTRKSITIGPGRAFFGTDIIGDIRQAHCNISREKWNYTLYQISEKLRSHFVNKTIVFNQSSGGDPEIVMHSFNCGGEFFYCDTSKLFNSTWHTNSTANNTGDNSTITIPCRIKQIVNMWQEVGKAMYAPPIKGPIRCSSKITGVLLTRDGGTNNTNTTETFRPAGGDMRDNWRSELYKYKVVQIEPLGIAPTQAKRRVVQRDKRAVGIGALFLGFLGTAGSTMGAASITLTVQARNLLSGIVQQQNNLLRAIEAQQHLLQLTVWGIKQLQARVLAVESYLKDQQLLGIWGCSGKLICTTAVPWNNSWSNKSLDYIWNNMTWMEWEREIDNYTEYIYDLLEASQNQQEKNEQELLALDKWASLWSWFSITQWLWYIKLFLIIVGGLIGLRIVFAVFSIVNRVRQGYSPLSLQTLLPAQRGPDRPEGIEEEGGEQDRGRSIRLVDGFLALFWDDLRSLCLFSYHRLRDLLLIVTRIVELLGRRGWETLKYCWNLLQYWGQELKKSAVSLFNFSAIAVAEGTDRVIEVVQRIWRAIIHIPRRIRQGLEGALL
B5: HIV-1 Env, reservoir clone (protein)
chain: MKVRVMQRNWQHLGRWGLLFLGLLICCNATEQLWVTVYYGVPVWKEATTTLFCASDAKGYEKEAHNVWATHACVPTDPNPQEIPLVNVTENFNMWKNNMVEQMQTDIISLWDQSLKPCVKLTPLCVTLNCNNNIKWANGNNSTNPDMKNCSFNMTTEVRDKRLKVSALFYKIDLTPINKSSGEYRLINCNTSTIKQACPKVSWDPIPIHYCAPAGYAILKCRDKNFNGTGPCNNVSTVQCTHGIKPVVSTQLLLNGSLAEEDIVIRTQNISDNAKTIIVSLNESVSINCIRPGNNTRKSIHIGPGQVFYANNDIIGDIRKAFCTLNGTQWNKTLDRVKAKLRSLFNKTTIIFAQPSGGDLEVTMHSFNCRGEFFYCNTSGLFNNNTFNNTGGNENITLPCRIKQIINMWQGVGQAMYTAPIAGNITCVSNITGLLLTRDGGPDNDNETFRPGGGDMRDNWRSELYKYKVVEIEPLGIAPTRAKRQVVRRERRAVGIGAMFLGFLGAAGSTMGAASIALTVQARQLLSGIVQQQNNLLRAIEAQQHLLQLTVWGIKQLQARVLAVERYLKDQQLLGVWGCSGKLICTTSVPWNSSWSNKSQQEIWDNMTWMDWEREISNYSQTIYKLLEESQYQQDKNEQELLALDKWASLWNWFDISNWLWYIRIFIMIVGGLIGLRMVFAVLAIVNRVRKGYSPLSLQTLIPNSRGPDRPEGIEEGGGEQDRDRSVRLVNGFLALVWDDLRNLCLFSYRLLRDFILIAARTVDRGLRGGWKALKYLWNLTQYWSRELRDSAISLYNSIAIAVAEGTDRIIEALLIIGRGILHIPRRIRQGLERALL
B6: HIV-1 Env, reservoir clone (protein)
chain: MKVRVMQRNWQHLGRWGLLFLGLLICCNATEQLWVTVYYGVPVWKEATTTLFCASDAKGYEKEAHNVWATHACVPTDPNPQEIPLVNVTENFNMWKNNMVEQMQTDIISLWDQSLKPCVKLTPLCVTLNCNNNIKWATGNNSTNPDMKNCSFNMTTEVRDKRLKVSALFYKIDLTPINKSSGEYRLINCNTSTIKQACPKVSWDPIPIHYCAPAGYAILKCRDKNFNGTGPCNNVSTVQCTHGIKPVVSTQLLLNGSLAEEDIVIRTQNISDNAKTIIVSLNESVSINCIRPGNNTRKSIHIGPGQVFYANNDIIGDIRKAFCTLNGTQWNKTLDRVKAKLRSLFNKTTIIFAQPSGGDLEVTMHSFNCRGEFFYCNTSGLFNDIDSNITLPCRIKQIINMWQGVGQAMYTAPIAGNITCVSNITGLLLTRDGGPDNDNETFRPGGGDMRDNWRSELYKYKVVEIEPLGIAPTRAKRQVVRRERRAVGIGAMFLGFLGAAGSTMGAASIALTVQARQLLSGIVQQQNNLLRAIEAQQHLLQLTVWGIKQLQARVLAVERYLKDQQLLGVWGCSGKLICTTSVPWNSSWSNKSQQEIWDNMTWMDWEREISNYSQTIYKLLEESQYQQDKNEQELLALDKWASLWNWFDISNWLWYIRIFIMIVGGLIGLRIVFAVLAIVNRVRKGYSPLSLQTLIPNSRGPDRPEGIEEGGGEQDRDRSVRLVNGFLALVWDDLRNLCLFSYRLLRDFILIAARTVDRGLRGGWKALKYLWNLTQYWSRELKDSAISLYNSIAIAVAEGTDRIIEALQIIVRGVLHIPRRIRQGLERALL

These binders were tested against antibody 10-1074 (assay: neutralization IC50; higher = virus less sensitive to the antibody).
Protocol: (§1)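 Pseudovirus bearing the Env chain mixed with antibody, from 50 µg/ml in fivefold dilutions, on TZM-bl reporter cells, in duplicate.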
B1 was tested, and the “neutralization IC50” value was > 50 µg/mL. For B2, the “neutralization IC50” value was 0.001 µg/mL. For B3, the “neutralization IC50” value was 0.001 µg/mL. In the case of B4, the “neutralization IC50” value is reported as 0.005 µg/mL. For B5, the “neutralization IC50” value was > 50 µg/mL. With B6 the “neutralization IC50” value was > 50 µg/mL.

The binders below were run against antibody 3BNC117 in the same assay as above.
Protocol: as §1
With B1 the “neutralization IC50” value was 0.08 µg/mL. For B2, the “neutralization IC50” value was 0.074 µg/mL. For B3, the “neutralization IC50” value was 0.047 µg/mL. For B4, the “neutralization IC50” value was 0.016 µg/mL. B5 was tested, and the “neutralization IC50” value was 0.374 µg/mL. For B6, the “neutralization IC50” value was 0.062 µg/mL.

These binders were tested against antibody 10-1074 (assay: neutralization IC80; higher = virus less sensitive to the antibody).
Protocol: as §1
With B1 the “neutralization IC80” value was > 50 µg/mL. In the case of B2, the “neutralization IC80” value is reported as 0.006 µg/mL. With B3 the “neutralization IC80” value was 0.003 µg/mL. For B4, the “neutralization IC80” value was 0.016 µg/mL. In the case of B5, the “neutralization IC80” value is reported as > 50 µg/mL. In the case of B6, the “neutralization IC80” value is reported as > 50 µg/mL.

These binders were tested against antibody 3BNC117 in the same assay as above.
Protocol: as §1
For B1, the “neutralization IC80” value was 0.585 µg/mL. For B2, the “neutralization IC80” value was 0.483 µg/mL. B3 was tested, and the “neutralization IC80” value was 0.198 µg/mL. With B4 the “neutralization IC80” value was 0.07 µg/mL. B5 was tested, and the “neutralization IC80” value was 1.78 µg/mL. With B6 the “neutralization IC80” value was 0.791 µg/mL.
